# Results: US9181234B2, “Antibacterial compounds” (priority 2010, dated 2015)
# Protein sequences, listed by entry. Tags and fused reporters are not part of them.
# UniProt P0A0K8, whole entry: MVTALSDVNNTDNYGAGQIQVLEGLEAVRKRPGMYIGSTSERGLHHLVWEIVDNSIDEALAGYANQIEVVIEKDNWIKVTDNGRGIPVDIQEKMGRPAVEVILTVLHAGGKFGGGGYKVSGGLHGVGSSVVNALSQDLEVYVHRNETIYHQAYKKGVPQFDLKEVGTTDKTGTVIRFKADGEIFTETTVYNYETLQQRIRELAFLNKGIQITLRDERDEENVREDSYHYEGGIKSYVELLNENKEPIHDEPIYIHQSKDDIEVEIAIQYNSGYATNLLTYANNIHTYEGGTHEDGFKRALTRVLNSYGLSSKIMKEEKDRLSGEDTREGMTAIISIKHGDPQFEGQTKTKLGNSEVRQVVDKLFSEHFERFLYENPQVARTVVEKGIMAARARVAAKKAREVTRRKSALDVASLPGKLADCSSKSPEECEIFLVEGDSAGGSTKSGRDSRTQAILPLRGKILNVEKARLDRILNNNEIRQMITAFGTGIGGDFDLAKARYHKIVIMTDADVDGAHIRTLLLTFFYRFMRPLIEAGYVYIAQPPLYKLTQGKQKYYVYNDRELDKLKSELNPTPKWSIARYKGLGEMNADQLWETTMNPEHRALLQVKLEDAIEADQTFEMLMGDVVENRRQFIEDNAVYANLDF
# Structures were worked out from names or drawings and are uncertain.
# Key:
# [1] = system: Haemophilus influenzae (Isolate ID ATCC 49247); assay: Antibacterial activity, MIC, H. influenzae; assay type: cell-based; conditions: Gram negative strain; broth microdilution or agar dilution
# Experimental: (§1) Bacterial Assay: Determination of Antibacterial Activity
# (§2) Compounds of the invention were tested for antimicrobial activity by susceptibility testing in liquid or on solid media. MICs for compounds against each strain were determined by the broth microdilution or agar dilution method according to the guidelines of the Clinical Laboratories and Standards Institute, formerly the National Committee for Clinical Laboratory Standards (Clinical Laboratories and Standards Institute. Methods for Dilution Antimicrobial Susceptibility Tests for Bacteria That Grow Aerobically; Approved Standard—Seventh Edition. Document M7-A7. CLSI, Wayne, Pa., 2006; Clinical Laboratories and Standards Institute. The gram positive bacterial strains tested include S. aureus (Staphylococcus aureus (Isolate ID ATCC 29213)), E. faecalis (Enterococcus faecalis (Isolate ID ATCC 29212)) and S. pyogenes (Streptococcus pyogenes (Isolate ID ATCC 51339)). The gram negative bacterial strains tested include H. influenzae (Haemophilus influenzae (Isolate ID ATCC 49247))
# [2] = system: Streptococcus pyogenes (Isolate ID ATCC 51339); assay: Antibacterial activity, MIC, S. pyogenes; assay type: cell-based; conditions: Gram positive strain; broth microdilution or agar dilution
# Experimental: as §1, §2
# [3] = molecular target: Gyrase enzyme (A2B2 complex from Staphylococcus aureus) (UniProt P0A0K8); assay: Gyrase ATPase assay (S. aureus enzyme); conditions: enzyme source (S. aureus or E. coli) not given; 1 mM ATP, 30° C., 60 minutes
# Experimental: On-Target Enzyme Assay: Determination of Gyrase ATPase Activity
# Gyrase converts ATP into ADP and inorganic phosphate. The released phosphate can be detected by the addition of malachite green solution and measured by monitoring the increase in absorbance at 600 nm. The ATPase assay is carried out in a buffer containing 2 mU/μl Gyrase enzyme (A2B2 complex from Staphylococcus aureus), 0.08 mg/ml double-stranded DNA, 8 mM HEPES.KOH pH 7.6, 100 mM K glutamate, 2 mM Mg acetate, 2 mM DTT, 0.01 mg/ml BSA, and 5% DMSO solution containing the inhibitor. Alternatively, the ATPase assay is carried out in a buffer containing 4.8 μg/mL Gyrase enzyme (A2B2 complex from Escherichia coli), 0.08 μg/mL ssDNA, 35 mM Tris pH 7.5, 24 mM KCl, 2 mM MgCl2, 6.5% Glycerol, 2 mM DTT, 1.8 mM Spermidine, 0.5 mg/mL BSA and 5% DMSO solution containing the inhibitor. The reaction is started by adding ATP to a final concentration of 1 mM and allowed to incubate at 30° C. for 60 minutes. The reaction is stopped by adding […] of malachite green solution (0.034% malachite green, 10 mM ammonium molybdate, 1 M HCl, 3.4% ethanol, 0.01% tween 20). Colour is allowed to develop for 5 minutes and the absorbance at 600 nm is measured spectrophotometrically. The IC50 values are determined from the absorbance readings using no compound and no enzyme controls.
# [4] = system: Staphylococcus aureus (Isolate ID ATCC 29213); assay: Antibacterial activity, MIC, S. aureus; assay type: cell-based; conditions: Gram positive strain; broth microdilution or agar dilution
# Experimental: as §1, §2
# [5] = system: Enterococcus faecalis (Isolate ID ATCC 29212); assay: Antibacterial activity, MIC, E. faecalis; assay type: cell-based; conditions: Gram positive strain; broth microdilution or agar dilution
# Experimental: as §1, §2
smiles,measurement,setting,value
CCNC(=O)Nc1nc2cc(-c3cnc(N4CCC(C)(C(=O)OCC)CC4)nc3)cc(C3CCN(C(C)=O)CC3)c2s1 [Compound 178],Antibacterial Activity (MIC) H. influenzae (ATCC 49247),[1],D (“D” activity >16 μg/mL)
same,Antibacterial Activity (MIC) S. pyogenes (ATCC 51339),[2],C (“C” activity >1.0 μg/mL-16 μg/mL)
same,Gyrase ATPase activity (IC50),[3],0.6 µg/mL
same,Antibacterial Activity (MIC) S. aureus (ATCC 29213),[4],D (“D” activity >16 μg/mL)
same,Antibacterial Activity (MIC) E. faecalis (ATCC 29212),[5],C (“C” activity >1.0 μg/mL-16 μg/mL)
